From patent EP4821928A1, “BICYCLIC HETEROCYCLIC COMPOUND AND FUNGICIDE FOR AGRICULTURAL AND HORTICULTURAL USE CONTAINING SAME AS ACTIVE INGREDIENT” (dated 2026)

Columns and labels:
[1] = system: Fusarium blight fungus (Fusarium graminearum); assay: Fusarium blight anti-germ test (Test Example D); conditions: 50 ppm/well; Czapek-dox broth; 25°C for 3 days; absorbance 600 nm
Botrytis cinerea = assay: Tomato gray mold pot test (Test Example B); conditions: 250 ppm sprayed, 2.5 ml/pot; tomato variety Oogata Fukuju; degree of disease development 2 to 3 days after inoculation
[2] = system: Speckled leaf blotch fungus (Septoria tritici); assay: Speckled leaf blotch anti-germ test (Test Example F); conditions: 50 ppm/well; Czapek-dox broth; 25°C for 3 days; absorbance 600 nm
Magnaporthe grisea = assay: Rice blast disease pot test (Test Example A); conditions: 250 ppm sprayed, 2.5 ml/pot; rice variety Sachikaze; degree of disease development 6 to 8 days after inoculation
[3] = system: Anthracnose fungus (Glomerella cingulata); assay: Anthracnose anti-germ test (Test Example E); conditions: 50 ppm/well; Czapek-dox broth; 25°C for 3 days; absorbance 600 nm
[4] = system: Gray mold fungus (Botrytis cinerea); assay: Gray mold anti-germ test (Test Example C); conditions: 50 ppm/well; Czapek-dox broth; 25°C for 3 days; absorbance 600 nm

SMILES | Fusarium blight anti-germ test (rate of inhibition) [1] | Tomato gray mold pot test (control value) (Botrytis cinerea) | Speckled leaf blotch anti-germ test (rate of inhibition) [2] | Rice blast disease pot test (control value) (Magnaporthe grisea) | Anthracnose anti-germ test (rate of inhibition) [3] | Gray mold anti-germ test (rate of inhibition) [4]
COc1ccc2c(c1)OC(C)(C)N=C2n1cnc2c(F)c(F)ccc21 | H (H represents a control value or rate of inhibition of larger than 50%) | H (H represents a control value or rate of inhibition of larger than 50%) | H (H represents a control value or rate of inhibition of larger than 50%) | L (L represents a control value or rate of inhibition of 50% or less) | H (H represents a control value or rate of inhibition of larger than 50%) | H (H represents a control value or rate of inhibition of larger than 50%)
COc1cccc2c1OC(C)(C)N=C2n1cnc2c(C)c(C)ccc21 | H (H represents a control value or rate of inhibition of larger than 50%) | H (H represents a control value or rate of inhibition of larger than 50%) | L (L represents a control value or rate of inhibition of 50% or less) | H (H represents a control value or rate of inhibition of larger than 50%) | H (H represents a control value or rate of inhibition of larger than 50%) | H (H represents a control value or rate of inhibition of larger than 50%)
Cc1cc2ncn(C3=NC4(CCCCC4)Oc4ccccc43)c2cc1C | H (H represents a control value or rate of inhibition of larger than 50%) | L (L represents a control value or rate of inhibition of 50% or less) | L (L represents a control value or rate of inhibition of 50% or less) | L (L represents a control value or rate of inhibition of 50% or less) | L (L represents a control value or rate of inhibition of 50% or less) | H (H represents a control value or rate of inhibition of larger than 50%)
